Reference: the supplement of paper PMC9931576
Human monoclonal antibodies against the spike receptor-binding domain (heavy:light variable regions). IC50 against pseudoviruses bearing the spike of naturally observed variants; lower = stronger; >10 µg/ml means not reached at the top dose. No active / inactive call. The stated detection limit is 0.0005 µg/ml; values near or below 0.001 µg/ml lie at the floor of the assay.

Legend:
Test in all cases: pseudovirus neutralization IC50; higher = weaker neutralization
[1] = molecular target: SARS-CoV-2 Omicron BA.1 spike pseudovirus
Protocol: (§1)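 Single-round VSV luciferase pseudovirus mixed with antibody dilutions for 1 h and put on Huh-7 cells for about a day; IC50 from the dose curve.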

[2] = molecular target: SARS-CoV-2 Omicron BA.2 spike pseudovirus
Protocol: as §1

[3] = molecular target: SARS-CoV-2 Omicron BA.2.75 spike pseudovirus
Protocol: as §1

[4] = molecular target: SARS-CoV-2 Omicron BA.5 spike pseudovirus
Protocol: as §1

[5] = molecular target: SARS-CoV-2 Omicron BQ.1.1 spike pseudovirus
Protocol: as §1

[6] = molecular target: SARS-CoV-2 Omicron XBB spike pseudovirus
Protocol: as §1

[7] = molecular target: SARS-CoV-2 early D614G spike pseudovirus
Protocol: as §1

| Binder | pseudovirus neutralization IC50 [1] | pseudovirus neutralization IC50 [2] | pseudovirus neutralization IC50 [3] | pseudovirus neutralization IC50 [4] | pseudovirus neutralization IC50 [5] | pseudovirus neutralization IC50 [6] | pseudovirus neutralization IC50 [7] |
| --- | --- | --- | --- | --- | --- | --- | --- |
| BD55-5593 (protein) chain 1: EVELVESGGGLVQPGGSLRLSCAASGFAFSSHEMTWVRQAPGKGLEWIAYISSSGYSIYYADSVKGRFVISRDDAKNSLFLQMNSPRSEDTAIYYCARVLNRGPVAGTLLDYWGQGTLVTVSS chain 2: QSVLTQPPSVSGAPGQRVTISCTGSSSNIGAGYAVHWYQQLPGAPPKLLIYHNSNRPSDVPDRFAGSTSGTSASLAITGLQAEDEADYYCLSYETSLLSAFYVFGTGTRVTV | 3.09 µg/mL | 2.99 µg/mL | 3.28 µg/mL | 3.33 µg/mL | 4.32 µg/mL | 4 µg/mL | 2.47 µg/mL |
| BD55-5617 (protein) chain 1: QMQLVQSGPEVKKPGTSVKVSCKASGFTFSSSAVQWVRQARGQRLEWIGWIEVGSGDTNYAQRFQDRVTISRDMSTSTAYMELRSLRSEDTAVYYCAAKVIGGYWYFDLWGRGSLITVSS chain 2: DIQMTQSPSSLSASVGDRVTITCRASQGIGNYLAWYQQKPGEAPKLLIYDASTLQYGVPSRFSGSGSGTDFTLTISSLQPEDVAIYYCQKFNSDPYTFGQGTKLEIK | > 10 µg/mL | > 10 µg/mL | > 10 µg/mL | > 10 µg/mL | > 10 µg/mL | > 10 µg/mL | > 10 µg/mL |
| BD55-5631 (protein) chain 1: QVQLVQSGAEVKKPGSSVRVSCKASGSTFSTHAISWVRQAPGQGLEWVGRIVPILDMTNYAQKFQGRVTITADKSTSTAYMELSSLRSDDTAVYYCARYKWNDGDSYYYVMDVWGQGTTVIVSS chain 2: DIQMTQSPSSLSASVGDRVTITCRASQAINTYLLWYQQKPGKAPNLLIYGASSLQSGVPSRFSGSGSGTDFTLTISSLQPEDFATYYCQQSYTTPTFGQGTRLEIK | > 10 µg/mL | > 10 µg/mL | > 10 µg/mL | > 10 µg/mL | > 10 µg/mL | > 10 µg/mL | 0.00138 µg/mL |
| BD55-5598 (protein) chain 1: QVQLVQSGAEVKKPGSSVKVSCKASGGTFSSYAVIWVRQAPGQGLQWMGGIIPLLGRKIYAREFQGRVTLTADGSTDTAFLELSSLRPGDTAVYFCARSSQTSSWDPFLDYWGQGTLVSVPS chain 2: QSVLTQPPSASGTPGQRVTISCSGSSSNIGGNSVNWYQQVPGAAPKLLIYSNYQRPSGVSDRFSGSWSGTSASLAISGLQSEDEANYYCAAWDDSLNAVVFGGGTKLTVL | 2.28 µg/mL | 3.01 µg/mL | 1.41 µg/mL | 5.41 µg/mL | 5.28 µg/mL | 2.79 µg/mL | 2.25 µg/mL |
| BD55-5620 (protein) chain 1: QITLKESGPTLVKPTQTLTLTCTFSGFSLTATGMGVGWIRQPPEKALEWLALIYWLDDTRYSPSLESRLTLTKDTSKNQVVLTMTNMDPVDTGTYYCAHLYYDSSSGYDTTGPDAFDFWGQGTMVTVSP chain 2: AIQITQSPSSLSASPGDTVTITCRASQPITNFLAWYQQRRGRAPKLLIHSASTLQSGVPWRFSGSGSGTHFTLTIRGLQSEDFATYYCQQYLSYPPTFGHGTKVEF | > 10 µg/mL | > 10 µg/mL | > 10 µg/mL | > 10 µg/mL | > 10 µg/mL | > 10 µg/mL | 0.0416 µg/mL |
| BD55-5612 (protein) chain 1: QLQLQESGPGLVKPSETLSLTCSVSGGSINSNLDYWGWIRQPPGKGLEWIGTISSGGNTYYSPSLKSRVTIVVDTSKNHFSLKLTSVTAADTAVYYCARSRGDYHYYYFYGLDVWGQGTTVTVSS chain 2: SYELTQPPSVSVSPGQTAGITCSGDALPNQYSYWYQQKPGQAPLLLIYKDNERPSEIPERFSGSSSGTTVALTISGVQAEDEADYYCQSSDRSGNVVFGGGTKLTVL | 0.246 µg/mL | 0.658 µg/mL | 0.869 µg/mL | 1.79 µg/mL | > 10 µg/mL | > 10 µg/mL | 0.00262 µg/mL |
